Measurements reported in PubChem BioAssay AID1259414 (Drosophila RNAi Screening Center, 2018)
Screen: 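Host factors increasing or decreasing Wolbachia levels in cultured fly cells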 (primary screen). Cells: Drosophila JW18 cells infected with Wolbachia. Reagents: long dsRNA against Drosophila genes, 0.25 µg dsRNA per well of a 384-well plate. Time to read-out: 5 days. Conditions: cells persistently infected with Wolbachia before knock-down; no added drug. Measured: 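Automated imaging of bacterial rRNA staining divided by host cell count, reported as plate-normalised robust z-score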. Scale: Wolbachia per cell robust z: higher = more Wolbachia per host cell than the plate typical. Call rule: 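Active if absolute robust z reaches 1.5 in two or more of three replicates, leaving out multi- or no-target dsRNAs, genes unexpressed in JW18 and A1 wells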.
The deposit covers about 24,000 reagents; below is an unselected part of those that have a named target and a result. Over the whole deposit, about 1,210 (5%) were called active. 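Inactive calls also include excluded dsRNAs with several or no targets, genes unexpressed in JW18, and well A1, regardless of score.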 A plus sign joins genes that one reagent is predicted to hit.

| Gene | dsRNA | Wolbachia per cell robust z, rep 1 | Wolbachia per cell robust z, rep 2 | Wolbachia per cell robust z, rep 3 | Call |
| --- | --- | --- | --- | --- | --- |
| CG5674 | DRSC23176 | -2.24 | 0.914 | 1.77 | inactive |
| CG5674 | DRSC28320 | -0.435 | 0.839 | -0.258 | inactive |
| stan | DRSC05234 | 1.25 | 0.373 | 1.02 | inactive |
| stan | DRSC07697 | -0.716 | -0.18 | 0.0727 | inactive |
| stan | DRSC40783 | -2.82 | 1.42 | 0.751 | inactive |
| mRpL16 | DRSC18550 | -0.509 | -0.803 | 0.156 | inactive |
| mRpL16 | DRSC29510 | 0.205 | -0.0587 | 1.94 | inactive |
| CG33510 | DRSC37782 | -0.289 | -0.214 | -0.467 | inactive |
| CG34216 | DRSC38631 | -0.693 | -4.4 | -7.11 | inactive |
| CG3223 | DRSC15468 | -0.489 | 0.126 | -4.53 | inactive |
| CG3223 | DRSC28290 | 0.989 | 0.843 | -0.113 | inactive |
| nullo | DRSC18807 | 0.529 | 0.109 | -0.159 | inactive |
| nullo | DRSC29660 | 0.115 | 1.03 | 1.16 | inactive |

In a second layout: entries from further up
stan [DRSC40783] | Wolbachia per cell robust z, rep 1 = -2.82; Wolbachia per cell robust z, rep 2 = 1.42; Wolbachia per cell robust z, rep 3 = 0.751; Call = inactive
mRpL16 [DRSC18550] | Wolbachia per cell robust z, rep 1 = -0.509; Wolbachia per cell robust z, rep 2 = -0.803; Wolbachia per cell robust z, rep 3 = 0.156; Call = inactive

The list goes on.
| Gene | dsRNA | Wolbachia per cell robust z, rep 1 | Wolbachia per cell robust z, rep 2 | Wolbachia per cell robust z, rep 3 | Call |
| --- | --- | --- | --- | --- | --- |
| ChAT + VAChT | DRSC13312 | -0.561 | 0.698 | 0.999 | inactive |
| lncRNA:CR33938 | DRSC37840 | 0.202 | 1.32 | 0.122 | inactive |
| lncRNA:CR33938 | DRSC39117 | -2.92 | -0.443 | 1.92 | inactive |
| Mst84Db | DRSC12542 | -2.29 | 0.2 | 0.908 | inactive |
| Mst84Db | DRSC12598 | -0.687 | 0.502 | 0.303 | inactive |
| Mst84Db | DRSC29236 | 0.468 | 0.341 | 1.09 | inactive |
| CG7430 | DRSC10845 | -1.63 | 0.818 | 0.554 | inactive |
| CG43867 | DRSC17836 | -1.71 | 0.0884 | -0.91 | inactive |
| CG43867 | DRSC17837 | -0.8 | -7.11 | -2.05 | active |
| CG43867 | DRSC17942 | -2.03 | 0.13 | 0.105 | inactive |
| CG43867 | DRSC17943 | 0.475 | -1.56 | 0.629 | inactive |
| CG43867 | DRSC25845 | 0.656 | -0.807 | 0.393 | inactive |
| CG43867 | DRSC28000 | 0.276 | -0.291 | 0.672 | inactive |
| CG12992 | DRSC19512 | 0.0949 | -0.0118 | 0.0893 | inactive |
| CG9406 | DRSC04552 | -1.44 | -0.052 | -0.741 | inactive |
